# Legend:
# Sequences of proteins named here, by UniProt entry; tags and fusion partners are left off. Residues count along the entry.
# UniProt J9W473, 1-851: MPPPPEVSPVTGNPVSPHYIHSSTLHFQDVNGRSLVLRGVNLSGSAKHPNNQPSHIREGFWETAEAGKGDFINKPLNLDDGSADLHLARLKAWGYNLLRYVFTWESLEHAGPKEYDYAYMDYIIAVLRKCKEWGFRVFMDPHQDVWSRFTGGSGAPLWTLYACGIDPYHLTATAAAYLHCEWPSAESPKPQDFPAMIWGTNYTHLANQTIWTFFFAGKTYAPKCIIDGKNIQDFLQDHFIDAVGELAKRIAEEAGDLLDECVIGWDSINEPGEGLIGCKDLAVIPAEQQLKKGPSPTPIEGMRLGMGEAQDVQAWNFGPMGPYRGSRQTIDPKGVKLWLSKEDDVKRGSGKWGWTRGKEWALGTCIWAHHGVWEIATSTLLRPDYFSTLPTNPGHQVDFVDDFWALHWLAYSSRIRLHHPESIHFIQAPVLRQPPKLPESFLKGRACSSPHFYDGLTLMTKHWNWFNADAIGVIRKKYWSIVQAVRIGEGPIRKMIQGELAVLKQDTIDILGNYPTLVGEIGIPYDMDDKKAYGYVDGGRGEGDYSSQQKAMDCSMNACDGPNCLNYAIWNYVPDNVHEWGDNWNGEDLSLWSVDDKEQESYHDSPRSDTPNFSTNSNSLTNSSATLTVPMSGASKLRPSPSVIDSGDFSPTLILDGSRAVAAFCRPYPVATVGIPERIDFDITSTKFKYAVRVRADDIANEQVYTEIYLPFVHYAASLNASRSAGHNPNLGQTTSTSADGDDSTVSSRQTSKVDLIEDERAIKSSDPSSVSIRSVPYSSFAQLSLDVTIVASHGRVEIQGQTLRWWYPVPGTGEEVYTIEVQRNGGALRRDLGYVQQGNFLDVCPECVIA
# C. neoformans Sgl1 = C. neoformans Sgl1 (Cryptococcus neoformans var. grubii, UniProt J9W473); assay: Sgl1 inhibition with res-glp substrate (HTS, single-compound dose-response); type: biochemical; details: read-out: IC50 against Sgl1; res-glp as substrate (100 µM), primary screen
# [1] = system: human lung epithelial cancer cell line A549; details: A549 cells, 24 h, MTT
Compound,IC50 (C. neoformans Sgl1) [nM],LD50 (lethal dose 50) [1] [µM]
CCc1[nH]c2ccc(CNc3nc(C)cc(NC)n3)cc2c1C,2000,87
CCc1[nH]c2ccc(CNc3cc(C)nc(NC)n3)cc2c1C,1000,50

# — article PMC8497620, “Structure and inhibition of Cryptococcus neoformans sterylglucosidase to develop antifungal agents” (Nature Communications, 2021)
